Reference: patent US20210371504A1

Molecular target: SARS-CoV-2 Spike protein on pseudotyped virus (isolate BetaCoV/Wuhan-Hu-1/2019) (SARS-CoV-2 Wuhan-Hu-1) (UniProt P0DTC2)
Assay: cell-based or functional assay

Substance: S309 N55Q MLNS GAALIE (antibody)
- calculated EC50, neutralization of SARS-CoV-2 pseudotyped virus: 0.0221 µg/mL
